Results of unrelated studies side by side (data: NIAID ChemDB).

Shared fields: growth or infection tests; organism: HIV-1; cells: MT-4; read-out: EC50

Conditions beyond the fields shown may differ between rows. Blank or dashed fields: not listed here. ECn: concentration that inhibits the pathogen or its effect by n%. Two numbers with a dash give a range or band.

| smiles | strain | mutations | method | value |
|---|---|---|---|---|
| CNC(O)c1cnc(Nc2ccc(C#N)cc2)nc1Nc1c(C)cc(/C=C/C#N)cc1C | L100I + K103N | - | - | 0.01622 µM |
| CN(C)CCN(C)C(=O)c1ccc(C2=NN3C(C(=O)c4ccc(F)cc4)Oc4ccccc4C3C2)cc1 | LAI | - | GFP / reporter gene | <1 µM |
| CCc1c(Cc2cc(C)cc(C)c2)n(COCC#CC#CCO[Si](c2ccccc2)(c2ccccc2)C(C)(C)C)c(=O)[nH]c1=O | IIIB | WT | MTT | 2 µM |
| CC(C)c1c(C(C)c2ccc(F)cc2)n(COCc2ccccc2)c(=O)[nH]c1=O | IIIB | K103N | MTT | >33.73 µM |
| COc1ccccc1CNC(=O)c1ccc(C2=NN3C(C(=O)c4ccc(F)cc4)Oc4ccccc4C3C2)cc1 | LAI | - | GFP / reporter gene | >10 µM |
| N#Cc1cc2[nH]c3ccccc3c2n(-c2ccc([N+](=O)[O-])cc2)c1=O | B | RT-K103N | cytopathic effect / MTT | 1.26 µM |
| O=C(NC1CCCC1)c1ccc(C2=NN3C(C(=O)c4ccc([N+](=O)[O-])cc4)Oc4ccccc4C3C2)cc1 | LAI | - | GFP / reporter gene | <1 µM |
| Cc1c(C(C)c2cccc3ccccc23)n(COCc2ccccc2)c(=O)[nH]c1=O | IIIB | - | MTT | >294 µM |
| CCc1c(Cc2cccc(Cc3nc(SC(C)C)[nH]c(=O)c3CC)c2)nc(SC(C)C)nc1OC(C)C | NNRTI-resistant | RT-Y181C | cytopathic effect / MTT | >43 µM |
| CCOC(=O)c1ccc(N2C(=O)C=CC3Nc4ccccc4C32)cc1 | LAI | - | cytopathic effect / MTT | >32 µM |
| N#Cc1cc(Cl)cc(Oc2cc(OCc3[nH]nc4ncccc34)cc(F)c2Cl)c1 | - | - | p24 | <20 µM |
| C=C(c1ccccc1)c1c(C)c(=O)[nH]c(=O)n1COCc1ccccc1 | IIIB | K103N | MTT | 46.06 µM |
| CN(C)CC1c2nc(C(=O)NCc3ccc(F)cc3)c(O)c(=O)n2CCN1Cc1ccn(C)n1 | - | - | p24 | 1–10 µM |
| O=C1c2c(O)c(=O)n([C@@H]3CCCC[C@H]3O)c(=O)n2CCN1Cc1ccc(F)cc1 | - | - | p24 | <10 µM |
| C=CCOCn1c(Cc2cc(F)ccc2F)c(CC)c(=O)[nH]c1=O | A17 | K103N + Y181C | MTT | 14 µM |
| CCc1nc(-c2ccc(N3C(=O)C=CC4C3c3ccccc3N4C)cc2)no1 | LAI | - | cytopathic effect / MTT | 1–32 µM |
| O=C(NCc1ccc(F)cc1)c1nc2n(c(=O)c1O)CCN(Cc1ccccc1)CC2 | - | - | p24 | <50 µM |
| Cc1cc(C#N)cc(C)c1Oc1nc(Nc2ccc(C#N)cc2)ncc1SCC(=O)Nc1ccc(S(C)(=O)=O)cc1 | - | L100I | MTT | 0.0965 µM |
| COCCOC(O)c1cnc(Nc2ccc(C#N)cc2)nc1Nc1c(C)cc(/C=C/C#N)cc1C | IIIB | - | - | 0.0024 µM |
| CN(C)c1ccc(NC(=O)c2ccc(C3=NN4C(C(=O)c5ccc(F)cc5)Oc5ccccc5C4C3)cc2)cc1 | LAI | - | GFP / reporter gene | <1 µM |
| Cc1cc(/C=C/C#N)cc(C)c1Nc1nc(Nc2ccc(C#N)cc2)ncc1C(O)OCc1cccnc1 | IIIB | - | - | 0.01096 µM |
| CCOCn1c(Cc2cccc(Cc3c(CC)c(=O)[nH]c(=O)n3COCC)c2)c(CC)c(=O)[nH]c1=O | - | - | cytopathic effect / MTT | 14 µM |
| Cc1cc(C#N)cc(C)c1Oc1nc(Nc2ccc(C#N)cc2)ncc1SCC(N)=O | IIIB | - | MTT | 0.0114 µM |
| N#Cc1cc(Cl)cc(Oc2c(Br)ccc(CC(=O)Nc3ccc(S(N)(=O)=O)cc3Cl)c2F)c1 | - | L100I V106I E138K Y188L | - | >0.4 µM |
| CC(C)N1C[C@H](C)N2C(=C(O)C3C(=O)N4Cc5ccc(F)cc5OCCCCCN(C)C(=O)C(=N4)C32)C1=O | LAII(IIIB) | - | - | 3.67 µM |
| COC(=O)C(CCSC)n1c(=O)c(O)c2n(c1=O)CCN(Cc1ccc(F)cc1)C2=O | - | - | p24 | <10 µM |
| Cc1cc(C#CCCO)cc(C)c1Oc1ccnc(Nc2ccc(C#N)cc2)n1 | IIIB | E138K | MTT | 0.05 µM |
| N#Cc1cc(Cl)cc(Oc2cc(OCC(=O)Nc3ccncc3C(F)(F)F)ccc2Cl)c1 | - | - | p24 | <20 µM |
| CC(C)CN(C[C@H](O)[C@@H](NC(=O)O[C@H]1CCOC1)Sc1ccccc1)S(=O)(=O)c1ccc(N)cc1 | - | - | syncytia | >50 µM |
| Cc1cc(C#N)cc(C)c1Oc1nc(Nc2ccc(C#N)cc2)ncc1SCC(=O)NCC1CCCO1 | - | K103N | MTT | 0.0046 µM |
| C#CCOCn1c(Cc2cccc(F)c2)c(CC)c(=O)[nH]c1=O | EFV-resistant (K103R V179D P225H) | - | MTT | >100 µM |
| CC(C)(CN1CCOCC1)Cn1c(=O)c(O)c2n(c1=O)CCN(Cc1ccc(F)cc1)C2=O | - | - | p24 | <10 µM |
| Cc1csc(-c2ccc(N3C(=O)C=CC4C3c3ccccc3N4C)cc2)n1 | LAI | - | cytopathic effect / MTT | >32 µM |
| CCc1c(Cc2cccc(Cc3[nH]c(=S)[nH]c(=O)c3CC)c2)[nH]c(=S)[nH]c1=O | RT-K103N+Y181C NNRTI-resistant | RT-K103N Y181C | cytopathic effect / MTT | >100 µM |
| CCOCn1c(Cc2cccc(F)c2)c(C(C)C)c(=O)[nH]c1=O | N119 (Y181C) | - | MTT | 14 µM |
| Cc1cc(/C=C/C#N)cc(C)c1Nc1nc(Nc2ccc(C#N)cc2)ncc1C(O)c1scnc1Br | PSI (IIIB) | - | - | 550 µM |
| O=C1c2c(O)c(=O)n(CCCn3ccnc3)c(=O)n2CCN1Cc1ccc(F)cc1 | - | - | p24 | <10 µM |
| CCc1c(Cc2cccc(Cc3nc(N(C)C)[nH]c(=O)c3CC)c2)nc(N(C)C)[nH]c1=O | RT-K103N+Y181C NNRTI-resistant | RT-K103N Y181C | cytopathic effect / MTT | >100 µM |
| CCC(O)(c1ccccc1OC)c1c(C)c(=O)[nH]c(=O)n1COCc1ccccc1 | IIIB | - | MTT | >90.34 µM |
| Cc1noc(CN2CCn3c(nc(C(=O)NCc4ccc(F)cc4)c(O)c3=O)C2(C)C)n1 | - | - | p24 | <1 µM |
| CCc1c(Cc2cccc(Cc3nc(SC)[nH]c(=O)c3CC)c2)nc(SC)[nH]c1=O | NNRTI-resistant | RT-Y181C | cytopathic effect / MTT | >100 µM |
| Cc1cc(/C=C/C#N)cc(C)c1Nc1nc(Nc2ccc(C#N)cc2)ncc1C(O)C#Cc1cncn1C | PSI (IIIB) | - | - | 145 µM |
| CCN1C[C@H](C)N2C(=C(O)C3C(=O)N4Cc5ccc(F)cc5OC/C=C\CCCS(=O)(=O)N(C)C(=N4)C32)C1=O | LAII(IIIB) | - | - | 3 µM |
| O=C1c2c(O)c(=O)n(C3CCNCC3)c(=O)n2CCN1Cc1ccc(F)cc1 | - | - | p24 | <10 µM |
| Cc1cc(/C=C/C#N)cc(C)c1Nc1nc(Nc2ccc(C#N)cc2)ncc1C(O)n1ccnc1 | K103N + Y181C | - | - | 0.02291 µM |
| CCN1C[C@H](C)N2C(=C(O)C3C(=O)N4Cc5ccc(F)cc5OC/C=C\CCS(=O)(=O)N(C)C(=N4)C32)C1=O | LAII(IIIB) | - | - | 0.59 µM |
| Cc1csc(C(O)c2cnc(Nc3ccc(C#N)cc3)nc2Nc2c(C)cc(/C=C/C#N)cc2C)n1 | PSI (IIIB) | - | - | 295 µM |
| N#Cc1cc(Cl)cc(Oc2cc(OCc3[nH]nc4ncccc34)ccc2Cl)c1 | - | - | p24 | <20 µM |
| Cc1nc2ccccc2c(-c2cc(F)c3c(c2C)CCCO3)c1[C@H](OC(C)(C)C)C(=O)O | NL4-3 | Q148R | luminescence | 0.017 µM |
| CSc1ccccc1CNC(=O)c1nc2n(c(=O)c1O)CN(C)C2(C)C | - | - | p24 | <50 µM |
| CCc1c(Cc2cc(C)cc(C)c2)n(COCC#Cc2ccccc2[N+](=O)[O-])c(=O)[nH]c1=O | IIIB | WT | MTT | 0.06 µM |
| O=C(NC1CCCCC1)c1ccc(C2=NN3C(C(=O)c4ccc(F)cc4)Oc4ccccc4C3C2)cc1 | LAI | - | GFP / reporter gene | 1–10 µM |
| CCOCn1c(Cc2cccc(C(F)(F)F)c2)c(C(C)C)c(=O)[nH]c1=O | N119 (Y181C) | - | MTT | 1.5 µM |
| CCC(O)(c1ccc(OC)cc1)c1c(C)c(=O)[nH]c(=O)n1COCc1ccccc1 | IIIB | - | MTT | >63.81 µM |
| CC(=O)OCC1=C[C@@H]2C(=O)[C@]3(C=C(C)[C@H](OC(C)=O)[C@@]3(O)[C@@H]1OC(C)=O)[C@H](C)C[C@@H]1[C@H]2C1(C)C | IIIB | - | cytopathic effect / MTT | 0.1 µM |
| CC(C)CN(C[C@H](O)[C@H](NC(=O)O[C@H]1CCOC1)Sc1ccccc1)S(=O)(=O)c1ccc(N)cc1 | - | - | syncytia | >50 µM |
| Cc1cc(C)cc(Cc2c(I)c(=O)[nH]c(=O)n2COCc2ccccc2)c1 | A17 | Y181C | p24 / ELISA | 0.021 µM |
| Cc1cc(C#N)cc(C)c1Oc1nc(Nc2ccc(C#N)cc2)ncc1SCC(=O)NC1CCN(C(=O)OC(C)(C)C)CC1 | IIIB | - | MTT | 0.0078 µM |
| COC(O)c1cnc(Nc2ccc(C#N)cc2)nc1Nc1c(C)cc(/C=C/C#N)cc1C | Y181C | - | - | 0.01175 µM |
| CCc1c(Cc2cccc(Cc3nc(SC(C)C)[nH]c(=O)c3CC)c2)nc(SC(C)C)[nH]c1=O | - | - | cytopathic effect / MTT | 14.5 µM |
| Cc1ccccc1C(c1c(C)c(=O)[nH]c(=O)n1COCc1ccccc1)C(C)C | IIIB | - | MTT | >34.7 µM |
| CCc1c(Cc2cccc(Cc3nc(SC)n(C)c(=O)c3CC)c2)nc(SC)nc1OC | RT-K103N+Y181C NNRTI-resistant | RT-K103N Y181C | cytopathic effect / MTT | >80 µM |
| Cc1ccccc1C(C)c1c(C)c(=O)[nH]c(=O)n1COCc1ccccc1 | IIIB | E138K | MTT | 71.63 µM |
| Cc1cc(C#N)cc(C)c1Oc1nc(Nc2ccc(C#N)cc2)ncc1SCC(=O)NCc1ccc(O)cc1 | - | Y188L | MTT | 0.0963 µM |
| CCc1c(Cc2cc(C)cc(C)c2)n(COCC#Cc2ccc(NC(=O)C(F)(F)F)cc2)c(=O)[nH]c1=O | IIIB | K103N + Y181C | MTT | 1.6 µM |
| COCCNC(=O)CSc1cnc(Nc2ccc(C#N)cc2)nc1Oc1c(C)cc(C#N)cc1C | - | Y181C | MTT | 0.0196 µM |
| Cc1cc(/C=C/C#N)cc(C)c1Oc1ccnc(Nc2ccc(CN3CCN(S(=O)(=O)N(C)C)CC3)cc2)n1 | - | Y181C | MTT | 0.092 µM |
| CCN1C[C@H](C)N2C(=C(O)C3C(=O)N4Cc5ccc(F)cc5C(=O)NCCCCCS(=O)(=O)N(C)C(=N4)C32)C1=O | LAII(IIIB) | - | - | 0.6 µM |
| CN(CC1c2nc(C(=O)NCc3ccc(F)cc3)c(O)c(=O)n2CCN1C)C(=O)c1cccc[n+]1[O-] | - | - | p24 | 1–10 µM |
| CC1(C)CC=C(c2cn(-c3nccc(C(=O)NC4CCC(N5CC6CCC(C5)O6)CC4)n3)c3ccc(F)c([C@H](OC(C)(C)C)C(=O)O)c23)CC1 | NL4-3 | - | luminescence | 0.0055 µM |
| C=C(c1cc(OC)cc(OC)c1)c1c(C)c(=O)[nH]c(=O)n1COCc1ccccc1 | IIIB | F227L + V106A | MTT | 28.01 µM |
| CCc1c(Cc2cccc(Cc3nc(N4CCCCC4)[nH]c(=O)c3CC)c2)nc(N2CCCCC2)[nH]c1=O | RT-K103N+Y181C NNRTI-resistant | RT-K103N Y181C | cytopathic effect / MTT | >80 µM |
| CN(C)c1ccc2c(COc3ccc(Cl)c(Oc4cc(Cl)cc(C#N)c4)c3)[nH]nc2n1 | - | - | p24 | <20 µM |
| Cc1cc(C#N)cc(C)c1Oc1nc(Nc2ccc(C#N)cc2)ncc1SCC(=O)NCCN1CCOCC1 | - | L100I | MTT | 0.0231 µM |
| CCN1C[C@H](C)N2C(=C(O)C3C(=O)N4Cc5ccc(F)cc5C(=O)NCCCCCN=C(N4)C32)C1=O | LAII(IIIB) | - | - | 797 µM |
| Cc1cc(/C=C/C#N)cc(C)c1Nc1nc(Nc2ccc(C#N)cc2)ncc1C(O)c1nccn1C | PSI (IIIB) | - | - | 166 µM |
| CCc1c(Cc2cc(C)cc(C)c2)n(COCC#Cc2cccc(CO[Si](c3ccccc3)(c3ccccc3)C(C)(C)C)c2)c(=O)[nH]c1=O | IIIB | K103N + Y181C | MTT | >100 µM |
| CC(C)(C)C1CCC(n2c(=O)c(O)c3n(c2=O)CCN(Cc2ccc(F)cc2)C3=O)CC1 | - | - | p24 | <10 µM |
| C=C(C)COCn1c(Cc2cc(F)ccc2F)c(CC)c(=O)[nH]c1=O | N119 (Y181C) | - | MTT | 25 µM |

6 of the rows above, restated:

| smiles | strain | mutations | method | value |
|---|---|---|---|---|
| Cc1cc(C#N)cc(C)c1Oc1nc(Nc2ccc(C#N)cc2)ncc1SCC(=O)NCc1ccc(O)cc1 | - | Y188L | MTT | 0.0963 µM |
| CCc1c(Cc2cccc(Cc3nc(SC(C)C)[nH]c(=O)c3CC)c2)nc(SC(C)C)[nH]c1=O | - | - | cytopathic effect / MTT | 14.5 µM |
| Cc1cc(C#N)cc(C)c1Oc1nc(Nc2ccc(C#N)cc2)ncc1SCC(N)=O | IIIB | - | MTT | 0.0114 µM |
| CCN1C[C@H](C)N2C(=C(O)C3C(=O)N4Cc5ccc(F)cc5OC/C=C\CCS(=O)(=O)N(C)C(=N4)C32)C1=O | LAII(IIIB) | - | - | 0.59 µM |
| N#Cc1cc(Cl)cc(Oc2cc(OCc3[nH]nc4ncccc34)cc(F)c2Cl)c1 | - | - | p24 | <20 µM |
| CC(C)CN(C[C@H](O)[C@H](NC(=O)O[C@H]1CCOC1)Sc1ccccc1)S(=O)(=O)c1ccc(N)cc1 | - | - | syncytia | >50 µM |